From PubChem BioAssay AID1033 (Sanford-Burnham Center for Chemical Genomics, 2008)
Calls of active or inactive are those of the source. The rule behind the calls is not given here.

Protein sequences, listed by entry. Tags and fused reporters are not part of them.
UniProt P0A6Y8, whole entry: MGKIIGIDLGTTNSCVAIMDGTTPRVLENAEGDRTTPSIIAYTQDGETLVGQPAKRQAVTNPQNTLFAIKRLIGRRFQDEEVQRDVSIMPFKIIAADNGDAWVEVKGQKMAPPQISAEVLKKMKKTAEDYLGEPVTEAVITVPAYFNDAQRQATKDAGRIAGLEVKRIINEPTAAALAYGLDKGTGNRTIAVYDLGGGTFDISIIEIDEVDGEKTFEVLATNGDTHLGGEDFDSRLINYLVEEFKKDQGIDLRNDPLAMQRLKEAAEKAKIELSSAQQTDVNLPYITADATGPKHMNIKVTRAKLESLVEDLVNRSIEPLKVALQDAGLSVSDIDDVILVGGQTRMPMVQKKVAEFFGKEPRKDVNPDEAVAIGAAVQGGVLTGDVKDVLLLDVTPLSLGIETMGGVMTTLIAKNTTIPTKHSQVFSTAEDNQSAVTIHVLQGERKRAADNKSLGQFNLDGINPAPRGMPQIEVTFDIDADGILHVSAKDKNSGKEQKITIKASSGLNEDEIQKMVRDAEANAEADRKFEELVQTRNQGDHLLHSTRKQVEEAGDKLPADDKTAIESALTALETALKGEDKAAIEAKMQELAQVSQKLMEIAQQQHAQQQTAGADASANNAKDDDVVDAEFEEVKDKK

Molecular target: Chaperone protein DnaK (Escherichia coli (strain K12)) (UniProt P0A6Y8)
Assay: E. coli DnaK SBD ligand binding – biophysical, NMR, chaperone (AID 1033)
Conditions: Purified DnaK SBD

Row | SMILES | Kd
1 | CP(N)(=O)Oc1ccc(Cl)cc1 (configuration not stated) | inactive: > 4 mM
2 | OC1CN2CCC1CC2 (configuration not stated) | inactive: > 4 mM
